A mixed list of measured activities; the numbers were collected in NIAID ChemDB.

All rows: tests in culture; organism: Candida albicans; read-out: MIC

Two numbers with a dash give a range or band. Blank or dashed fields: not listed here. Lines come from different laboratories, so protocols vary.

| SMILES | strain | read by | result |
|---|---|---|---|
| CCCCCCCCCCSc1cc(=S)ss1 | ATCC 10231 |  | >250 µg/mL |
| Cn1ccc(C(Cc2ccc(Cl)cc2)n2ccnc2)c1 |  |  | >300 µM |
| CCOc1cc2c(cc1F)n([O-])c(C)c(S(=O)(=O)c1ccccc1)[n+]2=O | Clinical isolate 18 |  | 7.8 µg/mL |
| O=C(O)/C=C/c1cccc([N+](=O)[O-])c1 |  |  | 0.002 µg/mL |
| CSC1NN=C(c2snnc2C)N1C1C2CC3CC(C2)CC1C3 | ATCC 14053 |  | 25 µg/mL |
| CCSSc1ssc(=S)c1OC | Clinical isolate 00-604 |  | <0.13 µg/mL |
| CCCCNC(=S)NNC(=O)c1sc(C)nc1C | ATCC 14053 |  | 12.5 µg/mL |
| CCCSc1cc(=S)ss1 | Clinical isolate 00-604 |  | 4 µg/mL |
| CSC1NN=C(c2snnc2C)N1c1ccc2ccccc2c1 | ATCC 14053 |  | 25 µg/mL |
| CCCCNC(=O)/C=C/c1ccccc1 |  |  | 0.002 µg/mL |
| Cc1c(S(=O)(=O)c2ccccc2)[n+](=O)c2cc(Cl)ccc2n1[O-] | Clinical isolate 20 |  | 62.5 µg/mL |
| C1C2CC3CC1CC(C2)C3Nc1nnc(C2C3CC4CC(C3)CC2C4)s1 | IFO 0583 |  | 2 µg/mL |
| Cn1ccc(C(Cc2ccc([N+](=O)[O-])cc2)n2ccnc2)c1 |  |  | >300 µM |
| COC(=O)/C=C/c1ccccc1 |  |  | 0.002 µg/mL |
| COC(Cn1cc(-c2ccc(Cl)cc2)c(C(c2ccc(Cl)cc2Cl)n2ccnc2)c1)OC |  |  | 0.48 µg/mL |
| CCNC(=S)N/N=C/C=C/c1ccccc1 | ATCC 24433 | broth dilution | 250 µg/mL |
| CC(N1CCN(c2ccc(-n3cnnn3)cc2)C1=O)[C@](O)(Cn1cncn1)c1ccc(F)cc1F | TA |  | 0.002–0.008 µg/mL |
| S=c1cc(Sc2ccccc2)ss1 | ATCC 10231 |  | 6.25 µg/mL |
| Cn1ccc(C(Cc2ccc(N)cc2)n2ccnc2)c1 |  |  | >300 µM |
| O=C(CCCCCCCCCC(=O)C1=C(O)C(Cc2ccc(O)cc2)NC1=O)CCCCCCCCCC(O)CO[C@@H]1OC[C@H](CO)[C@@H](O)[C@H](O)[C@H]1O | MY1055 |  | 8 µg/mL |
| C=Cn1cc(-c2ccc(Cl)cc2)c(C(c2ccccc2)n2ccnc2)c1 |  |  | 0.031 µg/mL |
| CC(=O)NCCOC(=O)On1cn[n+](C[C@](O)(c2ccc(F)cc2F)[C@@H](C)N2CCN(c3ccc(-n4cnnn4)cc3)C2=O)c1 | TA |  | 0.06 µg/mL |
| Clc1ccc(CC(c2ccc(Cl)s2)n2ccnc2)cc1 |  |  | 37.5 µM |
| O=[N+]([O-])c1ccc(NC(=S)N/N=C/c2c[nH]c3ccccc23)cc1 | ATCC 24433 | broth dilution | 500 µg/mL |
| Cc1ccc(C(Cc2ccc(N)cc2)n2ccnc2)s1 |  |  | 37.5 µM |
| O=NN(CC(=O)O)c1ccc(C(=O)/C=C/c2nc3ccccc3c(=O)n2-c2ccccc2)cc1 |  |  | 100 µg/mL |
| Cc1ccc(C(Cc2ccc(Cl)cc2)n2ccnc2)s1 |  |  | >18 µM |
| CC(=O)Nc1ccc(C(=O)/C=C/c2nc3ccccc3c(=O)n2-c2ccccc2)cc1 |  |  | >200 µg/mL |
| Cc1ccc(C(c2ccn(-c3ccc(F)cc3)c2)n2ccnc2)cc1 |  |  | 3.1 µg/mL |
| C[C@H]1[C@H](O)[C@@H](C)/C=C/C=C/C=C/C=C/C=C/C=C/C=C/[C@H](O[C@@H]2O[C@H](C)[C@@H](O)[C@H](N)[C@@H]2O)C[C@@H]2O[C@](O)(C[C@@H](O)C[C@@H](O)CC[C@H](O)[C@@H](O)C[C@@H](O)CC(=O)O[C@H]1C)C[C@H](O)[C@H]2C(=O)O | ATCC 10231 | broth dilution | 0.125 µg/mL |
| CCSc1ssc(=S)c1Cl | ATCC 10231 |  | 250 µg/mL |
| CC(C)OC(=O)On1cn[n+](C[C@](O)(c2ccc(F)cc2F)[C@@H](C)N2CCN(c3ccc(-n4cnnn4)cc3)C2=O)c1 | TA |  | 0.25 µg/mL |
| O=C(Nc1nc2ccc(NC(=O)[C@@H]3CCC[C@H](NCc4ccc5ccccc5c4)C3)cc2s1)C1CCCC1 | IFM 47596 (AD) |  | 3.13 µM |
| NC(=O)/C=C/c1ccccc1 |  |  | 0.002 µg/mL |
| CCOc1cc2c(cc1F)n([O-])c(C)c(Cl)[n+]2=O | Clinical isolate 14 |  | 62.5 µg/mL |
| Cn1cccc1C(Cc1ccc([N+](=O)[O-])cc1)n1ccnc1 |  |  | >300 µM |
| Cc1ccc(-n2c(/C=C/C(=O)c3ccc(N(CC(=O)O)N=O)cc3)nc3ccccc3c2=O)cc1 |  |  | 50 µg/mL |
| Cc1c(Sc2ccccc2)[n+](=O)c2cc(C(F)(F)F)ccc2n1[O-] | Clinical isolate 4 |  | 15.6 µg/mL |
| O=C(/C=C/c1ccccc1)Nc1ccccc1[N+](=O)[O-] |  |  | 0.003 µg/mL |
| O=C(/C=C/c1nc2ccccc2c(=O)n1-c1ccc(Br)cc1)c1ccc(N2CC(O)ON2)cc1 |  |  | >200 µg/mL |
| C=C1C(=O)OCC1COC(=O)CCCC(C)C | A9540 |  | 50 µg/mL |
| Cc1ccc(-n2c(/C=C/C(=O)c3ccc(N4CC(O)ON4)cc3)nc3ccccc3c2=O)cc1 |  |  | 100 µg/mL |
| COc1ccc(NC(=S)N/N=C/c2c[nH]c3ccccc23)cc1 | ATCC 24433 | broth dilution | 250 µg/mL |
| Cc1ccc(-n2c(/C=C/C(=O)c3ccc(NCC(=O)O)cc3)nc3ccccc3c2=O)cc1 |  |  | >200 µg/mL |
| C[C@@H](N1CCN(c2ccc(-n3cnnn3)cc2)C1=O)[C@](O)(C[n+]1cn(OC(=O)OC2COCOC2)cn1)c1ccc(F)cc1F | TA |  | 0.06 µg/mL |

Repeating the final 6 entries:

SMILES,strain,read by,result
O=C(/C=C/c1nc2ccccc2c(=O)n1-c1ccc(Br)cc1)c1ccc(N2CC(O)ON2)cc1,,,>200 µg/mL
C=C1C(=O)OCC1COC(=O)CCCC(C)C,A9540,,50 µg/mL
Cc1ccc(-n2c(/C=C/C(=O)c3ccc(N4CC(O)ON4)cc3)nc3ccccc3c2=O)cc1,,,100 µg/mL
COc1ccc(NC(=S)N/N=C/c2c[nH]c3ccccc23)cc1,ATCC 24433,broth dilution,250 µg/mL
Cc1ccc(-n2c(/C=C/C(=O)c3ccc(NCC(=O)O)cc3)nc3ccccc3c2=O)cc1,,,>200 µg/mL
C[C@@H](N1CCN(c2ccc(-n3cnnn3)cc2)C1=O)[C@](O)(C[n+]1cn(OC(=O)OC2COCOC2)cn1)c1ccc(F)cc1F,TA,,0.06 µg/mL